This passage reports inhibition results from ChEMBL document CHEMBL3616404, “Expanding the chemical space of human serine racemase inhibitors” (Bioorg Med Chem Lett, 2015).

The experiment addresses T1, Serine racemase (Homo sapiens) (UniProt Q9GZT4).
T1 sequence (whole entry): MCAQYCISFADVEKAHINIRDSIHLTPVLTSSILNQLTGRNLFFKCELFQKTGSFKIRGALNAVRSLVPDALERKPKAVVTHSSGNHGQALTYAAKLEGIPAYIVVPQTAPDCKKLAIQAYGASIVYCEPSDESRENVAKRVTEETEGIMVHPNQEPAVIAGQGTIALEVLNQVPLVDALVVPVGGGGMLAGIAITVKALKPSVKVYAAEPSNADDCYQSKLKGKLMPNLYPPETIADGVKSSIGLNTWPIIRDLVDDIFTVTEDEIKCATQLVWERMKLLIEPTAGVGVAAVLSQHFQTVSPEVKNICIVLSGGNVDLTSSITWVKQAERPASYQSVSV
As to the kind of experiment: Inhibition of hexa-His-tagged purified human recombinant serine racemase expressed in Escherichia coli BL21 Codonplus (DE3)-RIL cells assessed as reduction in beta-elimination of L-serine at 1.2 mM by spectrophotomtery.

As to `O=[N+]([O-])C(=C1N[C@H](O)[C@@H](O)N1)[N+](=O)[O-]`, the inhibition stood at 0%.

For orientation: inhibition means the relative decrease from the control value, in per cent.
